Data as given in PubChem BioAssay AID1224833 (University of Georgia, 2016)
Here is one part, drawn at random, of about 12,000 reagents. About 5,600 of them (46%) were called active. 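Active calls cover z-scores past 1 in both directions, so they include lowered as well as raised rotavirus replication.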

Assay: 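Host factors restraining rotavirus as candidate antiviral genes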 (primary screen)
Cell system: monkey MA104 kidney cells
Reagent: siRNA pool against human genes, 50 nM
Duration: 48 h knock-down before infection; read 24 h after infection
Treatment: infection with rotavirus strain RV3 two days after transfection; infectious dose for this stage not given
Read-out: 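Rotavirus antigen per well by fluorescent immunoassay, normalised to non-targeting control wells on each plate and given as a standard z-score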
Reading the numbers: z-score vs non-targeting control: higher = more rotavirus replication than with non-targeting control
Active means: In these data the active calls have z-score vs non-targeting control at about -1 or lower, or at about 1 or higher
Calls: active = z-score beyond 1 either way; inactive = z-score within 1 of zero

| z-score vs non-targeting control | Outcome | Target gene | PubChem SID |
| --- | --- | --- | --- |
| 0.256 | inactive | PDYN | SID329574793 |
| -0.907 | inactive | CFH | SID329573954 |
| 0.286 | inactive | OR51I1 | SID329584378 |
| -2.73 | active | ANKS1A | SID329577923 |
| 0.257 | inactive | MATCAP2 | SID329577960 |
| 1.37 | active | SPCS3 | SID329580485 |
| -0.359 | inactive | ZXDA | SID329575943 |
| 0.687 | inactive | PYY | SID329574983 |
| 0.516 | inactive | TFRC | SID329575621 |
| 0.709 | inactive | OPN3 | SID329578084 |
| -1.01 | active | BOLA2 | SID329584665 |
| -1.72 | active | OR8H1 | SID329583499 |
| 1.27 | active | GTF2H2 | SID329573892 |
| 1.74 | active | RANBP3 | SID329576137 |
| -1.29 | active | CMIP | SID329581257 |
| -0.273 | inactive | MCM3AP | SID329576340 |
| -0.788 | inactive | IQGAP2 | SID329577360 |
| -1.77 | active | CHCHD7 | SID329580846 |
| -0.581 | inactive | MICALL1 | SID329581843 |
| -1.48 | active | GUCY1B1 | SID329573901 |
| 0.634 | inactive | GCHFR | SID329573738 |
| -2.13 | active | SREBF1 | SID329575481 |
| -0.74 | inactive | ENTR1 | SID329577371 |
| -2.45 | active | RHOC | SID329572812 |
| -1.46 | active | OR10H2 | SID329578409 |
| 0.218 | inactive | ZSCAN31 | SID329580610 |
| -0.791 | inactive | FMNL2 | SID329582225 |
| -0.726 | inactive | LEPROT | SID329579373 |
| -1.82 | active | ZP1 | SID329577723 |
| -1.2 | active | VCX | SID329578425 |
| 1.1 | active | PHC1 | SID329573486 |
| -1.81 | active | GBP5 | SID329582268 |
| -0.862 | inactive | SULT1B1 | SID329578555 |
| -1.49 | active | ZNF93 | SID329581378 |
| -1.82 | active | TAC1 | SID329575544 |
| -1.1 | active | CDX4 | SID329573128 |
| -1.01 | active | CA5B | SID329577610 |
| -1.34 | active | SPACA4 | SID329583336 |
| -1.52 | active | OAT | SID329574687 |
| -0.8 | inactive | ELAVL2 | SID329573519 |
| -0.99 | inactive | ADCY6 | SID329572688 |
| -0.0549 | inactive | GRTP1 | SID329580997 |
| 0.251 | inactive | RGS5 | SID329576135 |
| 1.05 | active | DEFB134 | SID329584672 |
| 0.89 | inactive | APOL4 | SID329581265 |
| 0.0205 | inactive | ZNF426 | SID329580835 |
| 0.828 | inactive | CX3CR1 | SID329573323 |
| 0.171 | inactive | RTL3 | SID329583467 |
| -0.711 | inactive | KDM4D | SID329579814 |
| -0.517 | inactive | SIRAL2 | SID329579518 |
| -0.127 | inactive | ZNF556 | SID329581128 |
| 0.661 | inactive | BSCL2 | SID329578417 |
| 1.88 | active | DDO | SID329576156 |
| 1.27 | active | TAF6L | SID329577283 |
| -1.13 | active | SEC61B | SID329577447 |
| 0.973 | inactive | TAF4B | SID329575551 |
| -1.96 | active | ICAM3 | SID329574080 |
| -0.725 | inactive | ENPP3 | SID329574791 |
| -0.796 | inactive | CTXN1 | SID329584528 |
| -1.25 | active | TMIE | SID329583772 |
| -1.15 | active | PLAGL1 | SID329574848 |
| -0.811 | inactive | HGS | SID329576452 |
| 0.871 | inactive | H3C6 | SID329576072 |
| -1.46 | active | PGLYRP2 | SID329582214 |
| 0.0643 | inactive | TXLNG | SID329579871 |
| 0.713 | inactive | RAB3IL1 | SID329575042 |
| 1.95 | active | WRAP73 | SID329578787 |
| 0.744 | inactive | EXD2 | SID329579647 |
| -1.1 | active | CLEC3B | SID329575676 |
| 0.466 | inactive | TCEAL2 | SID329582795 |
| -0.477 | inactive | CD109 | SID329582724 |
| -1.67 | active | URGCP | SID329579796 |
| -1.59 | active | SLC6A3 | SID329575354 |
| 1.1 | active | PDLIM3 | SID329578565 |
| -1.42 | active | MTHFD1L | SID329578213 |
| 0.554 | inactive | SMR3B | SID329577402 |
| 0.137 | inactive | CLDN7 | SID329573244 |
| -0.704 | inactive | PPP4R3A | SID329579802 |
| -1.45 | active | PHAX | SID329579209 |
| -0.974 | inactive | DENND1C | SID329581096 |
| -0.929 | inactive | OLFM4 | SID329577240 |
| 1.47 | active | ME1 | SID329574418 |
| -1.61 | active | SOX17 | SID329580612 |
| 0.831 | inactive | DCP1A | SID329579877 |
| -0.0451 | inactive | DCAF12 | SID329578194 |
| 1.5 | active | VPS16 | SID329580651 |
| -1.55 | active | TIMP3 | SID329575646 |
| -1.69 | active | PRAMEF10 | SID329584115 |
| 0.541 | inactive | BMP4 | SID329572930 |
| -0.306 | inactive | NEDD1 | SID329582423 |
| -0.794 | inactive | MS4A4A | SID329579030 |
| -0.125 | inactive | NXNL2 | SID329583138 |
| -0.548 | inactive | ZNF513 | SID329582660 |
| -0.728 | inactive | MMRN2 | SID329581020 |
| 0.0496 | inactive | POU5F1 | SID329574915 |
| 1.1 | active | YPEL2 | SID329584324 |
| 1.96 | active | COX17 | SID329576942 |
| -0.718 | inactive | MSLN | SID329577042 |
| -0.106 | inactive | ZNF223 | SID329575929 |
| -0.96 | inactive | TRPS1 | SID329575720 |
| 1.41 | active | DHRS1 | SID329582281 |
| 0.583 | inactive | BBS10 | SID329580985 |
| -0.886 | inactive | UXT | SID329576099 |
| 1.24 | active | OR6K3 | SID329584442 |
| 1.16 | active | ACE2 | SID329580445 |
| -0.693 | inactive | KISS1R | SID329581675 |
| -0.202 | inactive | JMJD4 | SID329580749 |
| 1.97 | active | PAFAH1B2 | SID329574739 |
| -0.683 | inactive | TMEM263 | SID329581954 |
| 0.343 | inactive | OR2A4 | SID329580892 |
